The values that follow come from patent US4103011A, “Novel penicillin compounds and process for preparation thereof” (priority 1976, dated 1978).

The nature of this data set: Urinary excretion in mice. Particulars: 25 mg/kg, im, single dose, pooled from 4 mice. Format: in vivo, male mice (ddY). The method, then:
The contents of the vials (No. A) obtained in Example 17 were dissolved in deionized water to form solutions of penicillin compound 1 in a concentration of 25 mg/ml. The solutions were administered in a dose of 25 mg/kg (im) to four male mice (ddY) having an average body weight of 25 g. After given periods of time, the urine was collected from the four mice, and the concentration of the penicillin compound 1 in the urine was determined.
Urine was collected by using a metabolism cage for 3, 6, and 24 hours after administration. The pooled urine was diluted with a 0.067M phosphate buffer (pH 7.0) before assay to 500 times for the 0-3 hour urine, 100 times for the 3-6 hour urine and 10 times for the 6-24 hour urine.
The levels of compound 1 were determined by the thin-layer cup-plate method using Escherichia coli Kp as an indicator microorganism and a standard calibration line was prepared in a 0.067M phosphate buffer (pH 7.0).

Where a name gives a salt, the structure may show the parent alone.

Take `CC1(C)S[C@@H]2[C@H](NC(=O)[C@H](NC(=O)c3c[nH]c4nc(N5CCN(C=O)CC5)ncc4c3=O)c3ccc(O)cc3)C(=O)N2[C@H]1C(=O)O` [Compound 1, D-α-[5,8-Dihydro-2-(4-formyl-1-piperazinyl)-5-oxopyrido[2,3-d]pyrimidine-6-carboxamido]-p-hydroxybenzyl-penicillin sodium salt]: the “V: urine volume” value was determined as 3.83 mL (0-3 hour), 2.23 mL (3-6 hour) and 6.67 mL (6-24 hour).
